This is an account of results in patent US20210255174.

The subject of the data set is SNAPtide (FITC/DABCYL), List Biological Laboratories product #521.

On to “BoNT/A complex (intact BoNT/A toxin complex, Metabiologics)”, for which the “Km of the immobilized enzyme against the free enzyme” value is “The Km of the immobilized enzyme is 3.2-fold lower than for the free enzyme”.
